Results as given in patent publication US20230248811A1.

Target: SNAP-25 in human induced pluripotent stem cell derived peripheral neurons (PERI.4U) (human) (UniProt P60880)
Test: cell-based or functional assay

For Unmodified recombinant BoNT/A1, the pEC50, SNAP-25 cleavage in human iPSC-derived peripheral neurons was 10.2 pEC50.
